# From patent US10118927B2, “Substituted piperidin-4-amino-type compounds and uses thereof” (dated 2018)
# Chains of the proteins cited; added tags and fusions are not shown. Lines headed by an entry give the natural chain unless they say otherwise; changes in a name come on top.
# UniProt P41146: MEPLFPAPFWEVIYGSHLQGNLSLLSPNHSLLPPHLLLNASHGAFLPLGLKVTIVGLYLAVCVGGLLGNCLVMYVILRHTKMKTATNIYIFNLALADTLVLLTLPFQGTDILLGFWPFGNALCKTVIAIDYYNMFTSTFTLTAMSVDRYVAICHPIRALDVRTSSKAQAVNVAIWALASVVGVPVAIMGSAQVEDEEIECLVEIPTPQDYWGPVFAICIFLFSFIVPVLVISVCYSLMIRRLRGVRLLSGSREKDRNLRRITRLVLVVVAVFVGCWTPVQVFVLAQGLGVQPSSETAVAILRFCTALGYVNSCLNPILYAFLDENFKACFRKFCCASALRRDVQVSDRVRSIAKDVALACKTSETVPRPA
# Target: human opioid receptor-like receptor (ORL-1) (Homo sapiens, UniProt P41146)
# Assay: In vitro ORL-1 receptor binding assay ([3H]-nociceptin displacement)
# Conditions: read-out: Ki [Average ± Std Deviation] ORL-1; membranes from recombinant HEK-293 cells; 0.1 nM [3H]-nociceptin
row,SMILES,Ki
1,O=C(O)CC(=O)N(Cc1ccccc1)C1CCN(C2CCCCCCC2)CC1,> 20 µM
2,O=C(O)CCN(C(=O)c1ccccc1)C1CCN(C2CCCCCCC2)CC1,> 20 µM
